Results of unrelated studies side by side (data: NIAID ChemDB).

Common to all: whole-cell or culture tests; organism: HIV-1; cell line: CEM + CEM-SS; read-out: fold resistance

Fold resistance: result on the changed form divided by that on wild type. Lines come from different laboratories, so protocols vary.

| smiles | strain or isolate | changes | read by | result |
|---|---|---|---|---|
| Cc1cn([C@H]2C[C@H](N=[N+]=[N-])[C@@H](CO)O2)c(=O)[nH]c1=O | IIIB(TIBO-R(I)) | RT-A98G V108I | cytopathic effect / XTT | 1.8 |
| C/C=C/CSc1cc(NC(=S)c2ccsc2C)ccc1Cl | UC10-resistant (RT Y181C K101E) | RT-Y181C K101E | cytopathic effect / XTT | >33.3 |
| Cc1cn([C@H]2C[C@H](N=[N+]=[N-])[C@@H](CO)O2)c(=O)[nH]c1=O | IIIB | RT-V108I | cytopathic effect / XTT | 0.8 |
| O=[N+]([O-])c1ccccc1S(=O)(=O)c1ccccc1 | IIIB(OC-R(I)) | RT-L100I | cytopathic effect / XTT | 6 |
| Cc1ccnc2c1NC(=O)c1cccnc1N2C1CC1 | TIBO R82150-resistant (RT A98G V108I) | RT-A98G V108I | cytopathic effect / XTT | 60 |
| Cc1c(Sc2ccccc2)n(COCCO)c(=O)[nH]c1=O | IIIB | RT-V108I | cytopathic effect / XTT | >18 |
| Cc1ccnc2c1NC(=O)c1cccnc1N2C1CC1 | NL4-3 | RT-K103N | cytopathic effect / XTT | >100 |
| CCCc1cc(=O)oc2c3c(c4c(c12)OC(C)(C)C=C4)O[C@H](C)[C@@H](C)[C@@H]3O | IIIB(OC-R(I)) | RT-L100I | cytopathic effect / XTT | >22 |
| Cc1cn([C@H]2C[C@H](N=[N+]=[N-])[C@@H](CO)O2)c(=O)[nH]c1=O | 4XAZT/Y181C (RT D67N K70R Y181C T215Y K219Q) | RT-D67N K70R Y181C T215Y K219Q | cytopathic effect / XTT | 33.3 |
| Cc1cn([C@H]2C[C@H](N=[N+]=[N-])[C@@H](CO)O2)c(=O)[nH]c1=O | NL4-3 | RT-K103N | XTT | 4 |
| O=S1(c2ccccc2)=NC(=S)Nc2ccccc21 | IIIB(TIBO-R(I)) | RT-A98G V108I | cytopathic effect / XTT | 44.5 |
| Cc1occc1C(=S)Nc1ccc(Cl)c(/C=N/OC(C)(C)C)c1 | NL4-3 (RT L100I) | RT-L100I | cytopathic effect / XTT | 27.5 |
| CCc1c(C(=O)c2cc(C)cc(C)c2)n(CC2CC=CC2)c(=O)[nH]c1=O | 4xAZT(RT-D67N K70R T215Y K219Q) | RT-D67N K70R T215Y K219Q | cytopathic effect / XTT | 0.3 |
| CCc1c(Sc2ccccn2)n(COCc2ccccc2)c(=O)[nH]c1=O | NL4-3 | RT-Y181C | cytopathic effect / XTT | 69.4 |
| Cc1ccnc2c1NC(=O)c1cccnc1N2C1CC1 | Calanolide A-resistant (RT T139I) | RT-T139I | cytopathic effect / XTT | 1 |
| CC(C)=CCOc1cc(NC(=S)c2ccoc2C)ccc1Cl | Dihydrocostatolide-resistant (RT-L100I) | RT-L100I | XTT | 60 |

For reference, 2 entries again:

| smiles | strain or isolate | changes | read by | result |
|---|---|---|---|---|
| O=S1(c2ccccc2)=NC(=S)Nc2ccccc21 | IIIB(TIBO-R(I)) | RT-A98G V108I | cytopathic effect / XTT | 44.5 |
| Cc1cn([C@H]2C[C@H](N=[N+]=[N-])[C@@H](CO)O2)c(=O)[nH]c1=O | 4XAZT/Y181C (RT D67N K70R Y181C T215Y K219Q) | RT-D67N K70R Y181C T215Y K219Q | cytopathic effect / XTT | 33.3 |